Results of unrelated studies side by side (data: NIAID ChemDB).

Shared fields: whole-cell or culture tests; agent: Mycobacterium tuberculosis

MIC bound: limit read from a one-dose screen. a–b is a range or a potency band. Conditions beyond the fields shown may differ between rows. MIC50, MIC90 and the like: level of inhibition, or share of isolates inhibited. Blank or dashed fields: not listed here. Inhibition is in % at the dose shown (toxicity tests: loss of growth or viability). ECn: concentration that inhibits the pathogen or its effect by n%.

SMILES,strain,changes,read by,read-out,tested at,value
CCCCS(=O)(=O)Nc1ccc2[nH]c(C(=O)NCC3CC3)c(C)c2c1,H37Rv,,resazurin,MIC90,,1.6 µM
CCOc1ccc(N2C(=O)/C(=C/c3ccc(C)o3)S/C2=N\c2ccccn2)cc1,H37Rv,,,MIC,,≥25 µg/mL
CCCCCCCCCCCCCCCCOc1nn(C)c(=O)c2c(C)n(CCCC)c(C)c12,H37Rv,,,inhibition,12.5 µg/mL,77%
Cc1ccc(-c2cnc(Nc3cccc(OCCCN(C)C)c3)c(C(N)=O)n2)cc1Cl,H37Rv (ATCC 27294),,resazurin,MIC,,2 µg/mL
C=CCN1C(=O)/C(=C/c2ccc(Cl)cc2Cl)S/C1=N\c1nc2ccccc2s1,H37Rv,,,MIC,,≥25 µg/mL
CC(C)CCn1c2ccccc2c2nc3cc(OC(C)C)c(OC(C)C)cc3nc21,H37Rv,,MTT,MIC,,100 µM
Cc1c(Cl)ccc2c(=O)c3cccc(CC(=O)O)c3oc12,H37Rv,,BACTEC,inhibition,12.5 µg/mL,0%
CCN(CC)CCCCOc1ccc(/C=C2\CC/C(=C\c3ccc(OCCCCN(CC)CC)cc3)C2=O)cc1,H37Rv,,visual reading,EC50,,6.25 µM
CC(C)(C)C1CCc2c(sc3nc(SCC(=O)NCc4ccccc4)nc(N)c23)C1,H37Rv,,MTT / visual reading,MIC,,>200 µg/mL
CC1CCc2c(-n3ccnc3)c(F)cc3c(=O)c(C(=O)O)cn1c23,100 strains,,,MIC50,,25 µg/mL
COc1nc2ccc(Br)cc2cc1[C@@H](c1ccccc1)[C@@](O)(CCN(C)C)c1cccc2ccccc12,17003,Ethambutol-resistant,broth dilution,MIC80,,<2 µM
Cc1ccc(NC(=S)NNC(=O)Cc2csc3nc(-c4ccc(Br)cc4)cn23)cc1,H37Rv,,,MIC,,>6.25 µg/mL
Cc1ccc(S(=O)(=O)Oc2ccc3oc4c(CO)ccc(NCCN(C)C)c4c(=O)c3c2)cc1,H37Rv,,,MIC,,12.5 µg/mL
O=C(Cc1csc2nc(-c3ccc(Br)cc3)cn12)NNC(=S)Nc1ccccc1,H37Rv,,,inhibition,6.25 µg/mL,0%
Nc1nnc(-c2ccncc2)s1,H37Rv,,,MIC,,5 µg/mL
CO[C@H]1/C=C/O[C@@]2(C)Oc3c(C)c(O)c4c(O)c(c(/C=N/N5CCN(C)CC5)c(O)c4c3C2=O)NC(=O)/C(C)=C\C=C\[C@H](C)[C@H](O)[C@@H](C)[C@@H](O)[C@@H](C)[C@H](OC(C)=O)[C@@H]1C,,31f (604276) resistant,broth dilution,MIC80,,0.004 µM
CN[C@@H]1[C@H](O[C@H]2[C@H](O[C@@H]3[C@@H](N)[C@H](O)[C@@H](N)[C@H](O)[C@H]3O)O[C@@H](C)[C@]2(O)CO)O[C@@H](CO)[C@H](O)[C@H]1O,666,,,MIC,,>100 µg/mL
C[C@H]1COc2c(N3CCN(C)CC3)c(F)cc3c(=O)c(C(=O)O)cn1c23,Strain 7,,,MIC,,0.25 µg/mL
CN(C)CCCOc1ccc(Nc2ncc(-c3cccc(F)c3)nc2C(=O)O)cc1,H37Rv (ATCC 27294),,resazurin,MIC,,>32 µg/mL
Cc1ccc(S(=O)(=O)N2CCCN(S(=O)(=O)c3ccc(C)cc3)CCSCCCSCC2)cc1,H37Rv,,resazurin,inhibition,6.25 µg/mL,-9%
C1=C2CCCC/C=C\C=C\CCN3CC[C@@H]4[C@H](CCCCCC/C=C\C=C/CCN(C2)C[C@H]14)C3,H37Rv (STR-resistant),,,MIC,,6.25 µg/mL
Cn1c(-c2ccc(/C=N/NC(=S)N/N=C/c3ccc(-c4c[n+]5ccsc5n4C)cc3)cc2)c[n+]2ccsc12.[Br-].[Br-],H37Rv,,BACTEC,inhibition,12.5 µg/mL,33%
Cc1c2c(OCC(O)CN3CCN(c4ccccc4)CC3)nn(C)c(=O)c2c(C)n1-c1ccccc1,H37Rv,,,inhibition,12.5 µg/mL,3%
CCCC[N+]12CC=C3COC(=O)C(C)(O)C(C)(O)C(C)C(=O)OC(CC1)C32.[Br-],H37Rv,,BACTEC,inhibition,12.5 µg/mL,-3%
CN(C)CCCOc1cccc(Nc2ncc(-c3cncnc3)nc2C(N)=O)c1,H37Rv (ATCC 27294),,resazurin,MIC,,>32 µg/mL
CCCCS(=O)(=O)Nc1ccc2[nH]c(C(=O)NC(C)C)c(C)c2c1,H37Rv,,resazurin,MIC90,,1.56 µM
COc1ccccc1OC(=O)Nc1ccc(C)c([N+](=O)[O-])c1,H37Rv,,BACTEC,inhibition,12.5 µg/mL,0%
COc1c(N2CCNC(C)C2)c(F)cc2c(=O)c(C(=O)O)cn(C3CC3)c12,Strain 325,,,MIC,,0.5 µg/mL
CC(C)(C)C1CCc2c(sc3nc(SCc4ccncc4)nc(N)c23)C1,H37Rv,,MTT / visual reading,MIC,,>200 µg/mL
C=CCN1C(=O)/C(=C/C2Oc3ccccc3O2)S/C1=N\c1nc2ccccc2s1,H37Rv,,,MIC,,≥25 µg/mL
C=CCn1c2ccccc2c2c(C)c3cnccc3c(C)c21,H37Rv,,resazurin,MIC bound,,<6.25 µg/mL
CCCCS(=O)(=O)Nc1ccc2[nH]c(C(=O)OCC)c(C)c2c1,H37Rv,,resazurin,MIC90,,0.19 µM
COc1ccc(/C=N\C2=NN3C(=CSC3c3ccc(N(C)C)cc3)S2)cc1,H37Rv,,resazurin,MIC,,6.25 µg/mL
CO[C@H]1/C=C/O[C@@]2(C)Oc3c(C)c(O)c4c(O)c(c5c(c4c3C2=O)NC2(CCN(CC(C)C)CC2)N=5)=NC(=O)/C(C)=C\C=C\[C@H](C)[C@H](O)[C@@H](C)[C@@H](O)[C@@H](C)[C@H](OC(C)=O)[C@@H]1C,Strain 119 (H526Y),,,MIC,,32 µg/mL
O=C(Nc1cccc2c1[nH]c(=O)c1ccccc12)C(F)(F)F,H37Rv,,BACTEC,MIC bound,,>12.5 µg/mL
CCCCNC(=S)NNC(=O)Cc1csc2nc(-c3ccc(Br)cc3)cn12,H37Rv,,,inhibition,6.25 µg/mL,0%
Cc1ccc(-c2cnc(Nc3ccc(OCCCN4CCN(C)CC4)nc3)c(C(N)=O)n2)cc1F,H37Rv (ATCC 27294),,resazurin,MIC,,0.5 µg/mL
CC1COc2c(N3CCN(C)CC3)c(F)cc3c(=O)c(C(=O)O)cn1c23,35820,Streptomycin-resistant,broth dilution,MIC80,,0.7 µM
C=CCN1C(=O)/C(=C/c2ccc(O)cc2)S/C1=N\c1nc2ccccc2s1,H37Rv,,,MIC,,≥25 µg/mL
Cc1c(F)cc2c(=O)c(C(=O)O)cn3c2c1CCC3C,100 strains,,,MIC90,,3.2 µg/mL
Cc1ccc(/C=C2\N=C(c3ccc([N+](=O)[O-])cc3Cl)OC2=O)o1,H37Rv,,MTT,MIC,,113 µM
O=C1C(Cl)C(c2ccccc2O)N1C1=NN2C(=CSC2c2ccc(O)cc2)S1,H37Rv,,resazurin,MIC,,3.125 µg/mL
C=CCN1C(=O)/C(=C/c2ccc(N(C)C)cc2)S/C1=N\c1nc2ccccc2s1,H37Rv,,,MIC,,≥25 µg/mL
COC(=O)C1=COC(C)C2CN3CCc4c([nH]c5cc(OC)ccc45)C3CC12.ON(O)O,H37Rv,,BACTEC,MIC,,≥12.8 µg/mL
CCOC(=O)CSc1nc(N)c2c3c(sc2n1)CC(C(C)(C)C)CC3,mc4914,,MTT,MIC,,4 µM
CN[C@H](CC(C)C)C(=O)N[C@H]1C(=O)N[C@@H](CC(N)=O)C(=O)N[C@H]2C(=O)N[C@H]3C(=O)N[C@H](C(=O)N[C@H](C(=O)O)c4cc(O)cc(O)c4-c4cc3ccc4O)[C@H](O)c3ccc(c(Cl)c3)Oc3cc2cc(c3O[C@@H]2O[C@H](CO)[C@@H](O)[C@H](O)[C@H]2O[C@H]2C[C@](C)(N)[C@H](O)[C@H](C)O2)Oc2ccc(cc2Cl)[C@H]1O,24 strains,,,MIC50,,25 µg/mL
CCOC(=O)C(=O)NNc1cccc(Cl)n1,H37Rv,,BACTEC,MIC,,≥12.5 µg/mL
O=C(Cc1csc2nc(-c3ccc(Br)cc3)cn12)NNC(=S)Nc1ccc(Cl)cc1,H37Rv,,,MIC,,>6.25 µg/mL
CN[C@@H]1[C@H](O[C@H]2[C@H](O[C@H]3[C@H](O)[C@@H](O)[C@H](N=C(N)N)[C@@H](O)[C@@H]3N=C(N)N)O[C@@H](C)[C@]2(O)C=O)O[C@@H](CO)[C@H](O)[C@H]1O,H37Rv,,resazurin,MIC,,6.25 µg/mL
O=C1OC(c2ccccc2)=N/C1=C\C(Cl)=C\c1ccccc1,H37Rv,,MTT,MIC,,40.4 µM
CCCCS(=O)(=O)Nc1ccc2[nH]c(C(=O)NCCNC(=O)c3ccc([N+](=O)[O-])o3)c(C)c2c1,H37Rv,,resazurin,MIC90,,1.56 µM
COc1cc(/C=C2\CC/C(=C\c3ccc(OCCCN4CCC(C)CC4)c(OC)c3)C2=O)ccc1OCCCN1CCC(C)CC1,H37Rv,,visual reading,MIC99,,6.25 µM
NC(=O)CCCCC1CCSS1,H37Rv,,BACTEC,MIC bound,,≤12.5 µg/mL
CCCc1ccc(C(=O)Nc2nc3ccccc3s2)cc1,mc4914,,MTT,MIC,,33.9 µM
Cc1ccc(-c2cnc(Nc3ccc(OCCCN4CCN(C)CC4)cc3)c(C(N)=O)n2)cc1C,H37Rv (ATCC 27294),,resazurin,MIC,,1 µg/mL
CC(C)(C)C(=O)Nc1ccc(C(=O)O)c(O)c1,H37Rv,,,MIC,,5 µg/mL
COC(=O)c1ccc(Cc2ccc(C(=O)OC)o2)o1,H37Rv,,BACTEC,MIC bound,,>12.5 µg/mL
C1=C2SC(/N=C\c3ccccc3)=NN2C(c2ccccc2)S1,H37Rv,,resazurin,MIC,,12.5 µg/mL
Nc1cccc2c1C(=O)c1cccc(NC(=O)c3ccc4c5c(nsc35)-c3ccccc3C4=O)c1C2=O,H37Rv,,BACTEC,inhibition,12.5 µg/mL,0%
CCOc1ccc(N2C(=O)/C(=C/c3ccc(O)c(OCC)c3)S/C2=N\c2ccccn2)cc1,H37Rv,,,MIC,,≥25 µg/mL
Cc1cc(NS(=O)(=O)c2ccc(NC(=O)C(C)(C)C)cc2)no1,H37Rv,,,MIC,,10 µg/mL
N/C(=C\c1ccc(/C=C(/NC(=O)c2ccccc2)c2nc3c([nH]2)C(=O)c2ccccc2C3=O)cc1)c1nc2c([nH]1)C(=O)c1ccccc1C2=O,H37Rv,,BACTEC,inhibition,12.5 µg/mL,72%
CCCCCCCCCCCCCCCCn1c(=O)c2c(C)n(CCCC)c(C)c2c(=O)n1C,H37Rv,,,EC50,,>12.5 µg/mL
Nc1c(Cl)ncnc1NC1CC1CO,H37Rv,,resazurin,inhibition,6.25 µg/mL,0%
CCOc1ccc(N2C(=O)/C(=C/c3cccc(O)c3)S/C2=N\c2ccccn2)cc1,H37Rv,,,MIC,,≥25 µg/mL
CCC(=O)CSc1nc(N)c2c3c(sc2n1)CC(C(C)(C)C)CC3,H37Rv,,MTT / visual reading,MIC,,>200 µg/mL
Cc1ccc(-c2cnc(Nc3cnc(OCCCN4CCN(C)CC4)nc3)c(C(N)=O)n2)c(C)c1,H37Rv (ATCC 27294),,resazurin,MIC,,1 µg/mL
O=Nc1ccc(NO)c2ccccc12,H37Rv,,BACTEC,MIC bound,,>12.5 µg/mL
Cc1ccc(-c2cnc(Nc3cccc(OCCCN(C)C)c3)c(C(N)=O)n2)cc1F,H37Rv (ATCC 27294),,resazurin,MIC,,0.7 µg/mL
CC1CCCN(CCCCOc2ccc(/C=C3\CC/C(=C\c4ccc(OCCCCN5CCCC(C)C5)cc4)C3=O)cc2)C1,H37Rv,,visual reading,MIC99,,6.25 µM
Cc1c2c(OCCCCN3CCN(c4ncccn4)CC3)nn(C)c(=O)c2c(C)n1-c1ccccc1,H37Rv,,,inhibition,12.5 µg/mL,43%
CC(C)c1ccc(C2NC(=S)NC3=C2c2ccccc2C3=O)cc1,H37Rv,,resazurin,MIC,,>12.5 µg/mL
COc1cc(/C=C2\CC/C(=C\c3ccc(OCCCCN4CCCC4)c(OC)c3)C2=O)ccc1OCCCCN1CCCC1,H37Rv,,visual reading,MIC99,,12.5–25 µM
CCN(CC)CCNc1cccc2sc3ccccc3c(=O)c12,H37Rv,,BACTEC,MIC,,12.5 µg/mL
O=C(Cc1csc2nc(-c3ccc(Br)cc3)cn12)N/N=C1\SCC(=O)N1c1ccc([N+](=O)[O-])cc1,H37Rv,,,inhibition,6.25 µg/mL,37%
CC(C)=Nn1cnc(C(=N)C#N)c1N,H37Rv,,BACTEC,inhibition,12.5 µg/mL,4%
CCCCCS(=O)(=O)Nc1ccc2[nH]cc(C)c2c1,H37Rv,,resazurin,MIC90,,1.56 µM
COc1ccc(OC)c2[nH]c(CCc3nc4c(OC)ccc(OC)c4[nH]3)nc12,H37Rv,,BACTEC,MIC bound,,>12.5 µg/mL
CC(C)OC(=O)CSc1nc(N)c2c3c(sc2n1)CC(C(C)(C)C)CC3,H37Rv,,MTT / visual reading,MIC,,3.1 µg/mL

The last 5 rows once more:

SMILES,strain,changes,read by,read-out,tested at,value
O=C(Cc1csc2nc(-c3ccc(Br)cc3)cn12)N/N=C1\SCC(=O)N1c1ccc([N+](=O)[O-])cc1,H37Rv,,,inhibition,6.25 µg/mL,37%
CC(C)=Nn1cnc(C(=N)C#N)c1N,H37Rv,,BACTEC,inhibition,12.5 µg/mL,4%
CCCCCS(=O)(=O)Nc1ccc2[nH]cc(C)c2c1,H37Rv,,resazurin,MIC90,,1.56 µM
COc1ccc(OC)c2[nH]c(CCc3nc4c(OC)ccc(OC)c4[nH]3)nc12,H37Rv,,BACTEC,MIC bound,,>12.5 µg/mL
CC(C)OC(=O)CSc1nc(N)c2c3c(sc2n1)CC(C(C)(C)C)CC3,H37Rv,,MTT / visual reading,MIC,,3.1 µg/mL